Measured values from several laboratories, pooled; numbers as filed in NIAID ChemDB.

Common to all: whole-cell or culture tests

MIC50, MIC90 and the like: level of inhibition, or share of isolates inhibited. Percent inhibition refers to the dose given; in toxicity tests it is the harm to the cells. Rows are shuffled and stem from different studies. Blank or dashed fields: not listed here.

structure,organism,strain or isolate,read by,conditions,read-out,dose,value
CCc1nc2cc(F)ccn2c1C(=O)NCc1ccc(C2CCN(c3ccc(OCC(F)(F)F)nc3)CC2)cc1F.Cl,Mycobacterium avium,,fluorescence,,inhibition,0.026 µM,85%
OCC1=C[C@H](N[C@H]2[C@@H](O)[C@@H](O)[C@@H](OC3[C@@H](O)[C@@H](O)[C@@H](O[C@H]4[C@@H](O)[C@@H](O)[C@H](O)O[C@@H]4CO)O[C@@H]3CO)O[C@@H]2CO)[C@H](O)[C@H](O)[C@@H]1O,Mycobacterium aurum,,,,MIC,,>25 µg/mL
O=C(NNC(=O)c1ccncc1)Nc1ccc(C(F)(F)F)cc1,Mycobacterium kansasii,My 6509/96,broth dilution,21 d,MIC100,,125 µM
CCCCCCO/N=C1\[C@H](C)CC(C)(O)[C@H](O[C@@H]2O[C@H](C)C[C@H](N(C)C)[C@H]2O)[C@@H](C)[C@H](O[C@H]2C[C@@](C)(OC)[C@@H](OC(C)=O)[C@H](C)O2)[C@@H](C)C(=O)O[C@H](CC)[C@@](C)(O)[C@H](O)[C@H]1C,Mycobacterium avium complex,20092 (clarithromycin-resistant),,,MIC,,3.13 µg/mL
NNC(=O)c1ccncc1,Mycobacterium kansasii,My 235/80,broth dilution,21 d,MIC100,,>250 µM
CCCCCCCCCCCCN(C(=O)Nc1ccc(Cl)cc1)[C@@H](CC(=O)OCC)C1O[C@@H]2OC(C)(C)O[C@@H]2[C@H]1OC,Mycobacterium aurum,,,,MIC,,25 µg/mL
CC1(C)N=C(N)N=C(N)N1OCCCOc1cc(Cl)c(Cl)cc1Cl,Mycobacterium avium complex,DW21,,,MIC,,2 µg/mL
CC[C@H]1OC(=O)[C@H](C)[C@@H](O[C@H]2C[C@@](C)(OC)[C@@H](OC(C)=O)[C@H](C)O2)[C@H](C)[C@@H](O[C@@H]2O[C@H](C)C[C@H](N(C)C)[C@H]2OC(=O)NNCCc2ccccc2)C(C)(O)C[C@@H](C)/C(=N\OCCCC2CCCCC2)[C@H](C)[C@@H](O)[C@]1(C)O,Mycobacterium avium complex,20096 (clarithromycin-resistant),,,MIC,,1.56 µg/mL
Cc1ccc2nc(C)c(C(=O)NCc3ccc(Oc4cccc(C(F)(F)F)c4)cc3)n2c1,Mycobacterium avium,,fluorescence,,inhibition,0.13 µM,85%
NCC[C@H](O)C(=O)N[C@@H]1C[C@H](N)[C@@H](O[C@H]2O[C@H](CN)[C@@H](O)[C@H](O)[C@H]2O)[C@H](O)[C@H]1O[C@H]1O[C@H](CO)[C@@H](O)[C@H](N)[C@H]1O,Mycobacterium chelonae,,broth dilution,,MIC50,,8 µg/mL
CCCCCCCC/C=C\CCCCCCCCN1C(=O)N(c2ccccc2)C(=O)C[C@H]1C1OC2OC(C)(C)OC2[C@H]1OC,Mycobacterium aurum,,,,MIC,,>25 µg/mL
COc1ccc(NC(=O)NNC(=O)c2ccncc2)cc1,Mycobacterium kansasii,My 6509/96,broth dilution,21 d,MIC100,,>125 µM
CCCCC(=O)O[C@H]1[C@H](C)OC(O[C@H]2[C@H](C)[C@@H](O[C@@H]3O[C@H](C)C[C@H](N(C)C)[C@H]3O)C(C)(O)C[C@@H](C)/C(=N\OCCCOc3ccccc3)[C@H](C)[C@@H](O)[C@](C)(O)[C@@H](CC)OC(=O)[C@@H]2C)C[C@@]1(C)OC,Mycobacterium avium complex,20092 (clarithromycin-resistant),,,MIC,,1.56 µg/mL
CO[C@@]1(NC(=O)C2SC(=C(C(N)=O)C(=O)[O-])S2)C(=O)N2C(C(=O)[O-])=C(CSc3nnnn3C)CS[C@@H]21,Mycobacterium fortuitum,914-8,,,MIC,,25 µg/mL
CCc1nc2ccc(Cl)cn2c1C(=O)NCc1ccc(N2CCN(c3ccc(OC(F)(F)F)cc3F)[C@@H](C)C2)c(F)c1.Cl,Mycobacterium avium,,fluorescence,,inhibition,0.0088 µM,85%
CCCCCCc1ccc(NC(=O)NNC(=O)c2ccncc2)cc1,Mycobacterium kansasii,My 6509/96,broth dilution,7 d,MIC100,,62.5 µM
CO[C@H]1/C=C/O[C@@]2(C)Oc3c(C)c(O)c4c(=O)c(c5oc6cc(N7CCN(CC(C)C)CC7)cc(=O)c6nc5c4c3=C2O)NC(=O)/C(C)=C\C=C\[C@H](C)[C@H](O)[C@@H](C)[C@@H](O)[C@@H](C)[C@H](OC(C)=O)[C@@H]1C,Mycobacterium ulcerans,ATCC 35840,,,MIC,,0.025 µg/mL
Cc1ccn2c(C(=O)NCc3ccc(C4CCN(c5ccc(OC(F)(F)F)cn5)CC4)cc3F)c(C)nc2c1,Mycobacterium avium,,fluorescence,,inhibition,0.089 µM,85%
CO[C@@]1(NC(=O)CCCC(N)C(=O)O)C(=O)N2C(C(=O)O)=C(COC(C)=O)CSC21,Mycobacterium fortuitum,1263,,,MIC,,>100 µg/mL
O=C(NNC(=O)c1ccncc1)Nc1ccc(Br)c(F)c1,Mycobacterium kansasii,My 6509/96,broth dilution,7 d,MIC100,,125 µM
CC[C@H]1OC(=O)[C@H](C)[C@@H](O[C@H]2C[C@@](C)(OC)[C@@H](OC(C)=O)[C@H](C)O2)[C@H](C)[C@@H](O[C@@H]2O[C@H](C)C[C@H](N(C)C)[C@H]2O)C(C)(O)C[C@@H](C)/C(=N\OCc2ccccc2)[C@H](C)[C@@H](O)[C@]1(C)O,Mycobacterium avium complex,20039 (clarithromycin-susceptible),,,MIC,,3.13 µg/mL
[2H]c1c(C([2H])([2H])[2H])c([2H])n2c(C(=O)NCc3cc(F)ccc3F)c(C)nc2c1[2H],Mycobacterium avium,,fluorescence,,inhibition,0.8 µM,85%
CO[C@H]1/C=C/O[C@@]2(C)Oc3c(C)c(O)c4c(O)c(c5c(c4c3C2=O)NC2(CCN(CC(C)C)CC2)N=5)=NC(=O)/C(C)=C\C=C\[C@H](C)[C@H](O)[C@@H](C)[C@@H](O)[C@@H](C)[C@H](OC(C)=O)[C@@H]1C,Mycobacterium avium intracellulare,420,,,MIC,,0.5 µg/mL
CC(C)N=C(N)/N=C(\N)NOCCCOc1cc(Cl)c(Cl)cc1Cl,Mycobacterium avium complex,2212,,,MIC,,16 µg/mL
CCOc1ccc(N2CCN(c3ccc(CNC(=O)c4c(CC)nc5ccc(Cl)cn45)cc3F)C[C@@H]2C)cc1,Mycobacterium avium,,fluorescence,,inhibition,0.011 µM,85%
CC1(C)OC2OC([C@@H]3CC(=O)N(Cc4ccccc4)C(=O)N3C3CC3)[C@H](Oc3ccccc3)C2O1,Mycobacterium aurum,,,,MIC,,>25 µg/mL
CCCCc1ccc(NC(=O)NNC(=O)c2ccncc2)cc1,Mycobacterium kansasii,My 6509/96,broth dilution,14 d,MIC100,,62.5 µM
Cc1ccn2c(C(=O)NCc3ccc(C4CCN(c5ccc(OC(C)C)cc5)CC4)cc3F)c(C)nc2c1,Mycobacterium avium,,fluorescence,,inhibition,0.94 µM,85%
CC[C@H]1OC(=O)[C@H](C)[C@@H](O[C@H]2C[C@@](C)(OC)[C@@H](OC(C)=O)[C@H](C)O2)[C@H](C)[C@@H](O[C@@H]2O[C@H](C)C[C@H](N(C)C)[C@H]2OC(=O)NNCc2cccnc2)C(C)(O)C[C@@H](C)/C(=N\OCCCC2CCCCC2)[C@H](C)[C@@H](O)[C@]1(C)O,Mycobacterium avium complex,20092 (clarithromycin-resistant),,,MIC,,1.56 µg/mL
CCCCCCCNC(=O)NNC(=O)c1ccncc1,Mycobacterium kansasii,My 235/80,broth dilution,7 d,MIC100,,32 µM
CC[C@H]1OC(=O)[C@H](C)[C@@H](OC2C[C@@](C)(OC)[C@@H](OC(=O)CCc3ccccc3)[C@H](C)O2)[C@H](C)[C@@H](O[C@@H]2O[C@H](C)C[C@H](N(C)C)[C@H]2O)C(C)(O)C[C@@H](C)/C(=N\OCCCOc2ccccc2)[C@H](C)[C@@H](O)[C@]1(C)O,Mycobacterium avium complex,20092 (clarithromycin-resistant),,,MIC,,1.56 µg/mL
Cc1nc2ccc(Br)cn2c1C(=O)NCc1ccc(N2CCC(c3ccc(F)cc3)CC2)cc1,Mycobacterium avium,,fluorescence,,inhibition,0.016 µM,85%
CO[C@@]1(NC(=O)CSCC#N)C(=O)N2C(C(=O)O)=C(CSc3nnnn3C)CS[C@@H]21,Mycobacterium fortuitum,AO5,,,MIC,,6.25 µg/mL
Fc1cc(Nc2nnc(-c3ccncc3)o2)ccc1Br,Mycobacterium avium,MY330/88,broth dilution,14 d,MIC100,,>125 µM
C[C@@H](O)[C@H]1C(=O)N2C(C(=O)O)=C(SCCN=CN)C[C@H]12,Mycobacterium fortuitum,1030-8,,,MIC,,1.56 µg/mL
O=C(NNC(=O)c1ccncc1)Nc1ccc(Br)cc1Br,Mycobacterium kansasii,My 235/80,broth dilution,14 d,MIC100,,>125 µM
CC[C@H]1OC(=O)[C@H](C)[C@@H](OC2C[C@@](C)(OC)[C@@H](OC(=O)CCCCc3ccccc3)[C@H](C)O2)[C@H](C)[C@@H](O[C@@H]2O[C@H](C)C[C@H](N(C)C)[C@H]2O)C(C)(O)C[C@@H](C)/C(=N\OCCCOc2ccccc2)[C@H](C)[C@@H](O)[C@]1(C)O,Mycobacterium avium complex,20096 (clarithromycin-resistant),,,MIC,,3.13 µg/mL
CO[C@@]1(NC(=O)Cc2ccccc2)C(=O)N2C(C(=O)O)=C(COC(C)=O)CSC21,Mycobacterium fortuitum,1045,,,MIC,,>100 µg/mL

For reference, 4 entries again:

structure,organism,strain or isolate,read by,conditions,read-out,dose,value
NNC(=O)c1ccncc1,Mycobacterium kansasii,My 235/80,broth dilution,21 d,MIC100,,>250 µM
CC[C@H]1OC(=O)[C@H](C)[C@@H](O[C@H]2C[C@@](C)(OC)[C@@H](OC(C)=O)[C@H](C)O2)[C@H](C)[C@@H](O[C@@H]2O[C@H](C)C[C@H](N(C)C)[C@H]2O)C(C)(O)C[C@@H](C)/C(=N\OCc2ccccc2)[C@H](C)[C@@H](O)[C@]1(C)O,Mycobacterium avium complex,20039 (clarithromycin-susceptible),,,MIC,,3.13 µg/mL
CCCCC(=O)O[C@H]1[C@H](C)OC(O[C@H]2[C@H](C)[C@@H](O[C@@H]3O[C@H](C)C[C@H](N(C)C)[C@H]3O)C(C)(O)C[C@@H](C)/C(=N\OCCCOc3ccccc3)[C@H](C)[C@@H](O)[C@](C)(O)[C@@H](CC)OC(=O)[C@@H]2C)C[C@@]1(C)OC,Mycobacterium avium complex,20092 (clarithromycin-resistant),,,MIC,,1.56 µg/mL
CC1(C)N=C(N)N=C(N)N1OCCCOc1cc(Cl)c(Cl)cc1Cl,Mycobacterium avium complex,DW21,,,MIC,,2 µg/mL